Measurements taken from PubChem BioAssay AID720579 (National Center for Advancing Translational Sciences (NCATS), 2013).
What follows is the remainder of the data, with few or none of the hits. Records with an inconclusive call do not appear. The source made the active and inactive calls. Calls come from the whole dose curve; tested in A549 cells.

Assay: qHTS for Stage-Specific Inhibitors of Vaccinia Orthopoxvirus: mCherry Reporter Primary qHTS; note: nearly all actives have a fitted effect of over 35% in size
Conditions: Vaccinia virus mCherry reporter infection, fluorescence; at 36.5 µM (top of the series)

Row | SMILES | outcome
1 | CCCCc1oc2ccccc2c1C(=O)c1cc(I)c(OCCN(CC)CC)c(I)c1 | inactive
